Results deposited as PubChem BioAssay AID624099 (ICCB-Longwood, 2012)
Purpose: 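Human genes that papillomavirus E2 requires to repress the HPV18 LCR promoter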 (primary screen). System: human C33A cervical carcinoma cells (HPV-negative) stably expressing BPV1 E2 and an HPV18 LCR luciferase reporter. Knock-down reagent: siRNA pool against human genes, 40 nM. Time to read-out: 72 h. Measured: 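Per-well luciferase luminescence, z-scored on each plate against the plate mean and SD with control wells left out, then averaged across three replicate plates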. Scale: mean z-score and z-score: higher = stronger reporter signal, weaker E2 silencing. Hit rule: 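Hit if mean z-score reaches 2 and two or more of three replicate z-scores also reach 2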.
The deposit covers about 21,000 reagents; below is an unselected part. In the full data, 497 (2.4%) are marked active. 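Higher z means weaker E2 silencing; only reporter increases were scored, and knock-downs that hurt cell survival may mask genuine repressor factors.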 Entries without a mark were called inactive.

| target gene | mean z-score | z-score, replicate A | z-score, replicate B | z-score, replicate C |
| --- | --- | --- | --- | --- |
| ZBTB37 (zinc finger and BTB domain containing 37) | 1.67 | 1.29 | 1.84 | 1.87 |
| ANKRD20A9P (ankyrin repeat domain 20 family member A9, pseudogene) | -0.36 | -0.44 | -0.15 | -0.49 |
| DIPK2A (divergent protein kinase domain 2A) | 0.52 | 0.31 | 0.73 | – |
| LYPD4 (LY6/PLAUR domain containing 4) | 0.82 | 0.66 | 0.99 | 0.8 |
| FERMT2 (FERM domain containing kindlin 2) | 0.97 | 0.94 | 0.85 | 1.12 |
| VOPP1 (VOPP1 WW domain binding protein) | 0.27 | 0.4 | 0.89 | -0.48 |
| PKHD1 (PKHD1 ciliary IPT domain containing fibrocystin/polyductin) | -0.65 | -0.8 | -0.74 | -0.42 |
| SATL1 (spermidine/spermine N1-acetyl transferase like 1) | -0.49 | -0.81 | -0.41 | -0.24 |
| RETSAT (retinol saturase) | -0.15 | -0.13 | 0.22 | -0.54 |
| AGFG2 (ArfGAP with FG repeats 2) | -0.47 | -0.59 | -0.01 | -0.79 |
| LOC390349 (retired record) | -0.72 | -0.29 | -0.56 | -1.29 |
| HEBP1 (heme binding protein 1) | -0.69 | -0.86 | -0.74 | -0.48 |
| ALX3 (ALX homeobox 3) | -1.29 | -1.62 | -1.06 | -1.17 |
| KRT14 (keratin 14) | 1.39 | 1.29 | 1.5 | 1.38 |
| LINC01205 (long independently transcribed non-coding RNA 1205) | 0.81 | 0.96 | 0.52 | 0.95 |
| PFKFB4 (6-phosphofructo-2-kinase/fructose-2,6-biphosphatase 4) | -0.35 | -0.31 | -0.66 | -0.09 |
| FGF4 (fibroblast growth factor 4) | -0.14 | -0.02 | -0.04 | -0.35 |
| SCEL (sciellin) | -0.51 | -0.56 | -0.25 | -0.7 |
| EIF4G3 (eukaryotic translation initiation factor 4 gamma 3) | -0.38 | -0.47 | -0.25 | -0.44 |
| ODAD2 (outer dynein arm docking complex subunit 2) | -1.1 | -1.11 | -1.28 | -0.9 |
| ILF2 (interleukin enhancer binding factor 2) | 1.36 | 1.5 | 1.47 | 1.12 |
| AXDND1 (axonemal dynein light chain domain containing 1) | -1.08 | -1.27 | -1.03 | -0.95 |
| ANKRD9 (ankyrin repeat domain 9) | -1.34 | -1.27 | -1.35 | -1.4 |

Single entries from the list:
Under “z-score, replicate B”, LINC01205 (long independently transcribed non-coding RNA 1205) shows 0.52
Entry of FERMT2 (FERM domain containing kindlin 2) under “z-score, replicate A”: 0.94
Entry for PFKFB4 (6-phosphofructo-2-kinase/fructose-2,6-biphosphatase 4) in “z-score, replicate B”: -0.66
For “z-score, replicate B”, FGF4 (fibroblast growth factor 4) is entered as -0.04
